Results of unrelated studies side by side (data: NIAID ChemDB).

Common to all: growth or infection tests; species: Aspergillus fumigatus; read-out: Geometric mean MIC

Rows are shuffled and stem from different studies.

CCC(C)n1ncn(-c2ccc(N3CCN(c4ccc(OC[C@H]5CO[C@](Cn6cncn6)(c6ccc(Cl)cc6Cl)O5)cc4)CC3)cc2)c1=O ; strain or isolate: 35 isolates ; value: 0.31 µg/mL
Nc1[nH]c(=O)ncc1F ; strain or isolate: 17 isolates ; value: 18.8 µg/mL
C[C@H]1[C@H](O)[C@@H](C)/C=C/C=C/C=C/C=C/C=C/C=C/C=C/[C@H](O[C@@H]2O[C@H](C)[C@@H](O)[C@H](N)[C@@H]2O)C[C@@H]2O[C@](O)(C[C@@H](O)C[C@@H](O)CC[C@H](O)[C@@H](O)C[C@@H](O)CC(=O)O[C@H]1C)C[C@H](O)[C@H]2C(=O)O ; strain or isolate: 62 isolates ; value: 0.334 µg/mL
C[C@@H](c1ncncc1F)[C@](O)(Cn1cncn1)c1ccc(F)cc1F ; strain or isolate: 28 isolates ; value: 0.08 µg/mL
C[C@H]1[C@H](O)[C@@H](C)/C=C/C=C/C=C/C=C/C=C/C=C/C=C/[C@H](O[C@@H]2O[C@H](C)[C@@H](O)[C@H](N)[C@@H]2O)C[C@@H]2O[C@](O)(C[C@@H](O)C[C@@H](O)CC[C@H](O)[C@@H](O)C[C@@H](O)CC(=O)O[C@H]1C)C[C@H](O)[C@H]2C(=O)O ; strain or isolate: 94 isolates ; value: 0.95 µg/mL
C[C@H]1[C@H](O)[C@@H](C)/C=C/C=C/C=C/C=C/C=C/C=C/C=C/[C@H](O[C@@H]2O[C@H](C)[C@@H](O)[C@H](N)[C@@H]2O)C[C@@H]2O[C@](O)(C[C@@H](O)C[C@@H](O)CC[C@H](O)[C@@H](O)C[C@@H](O)CC(=O)O[C@H]1C)C[C@H](O)[C@H]2C(=O)O ; strain or isolate: 50 isolates ; value: 0.38 µg/mL
C[C@H]1[C@H](O)[C@@H](C)/C=C/C=C/C=C/C=C/C=C/C=C/C=C/[C@H](O[C@@H]2O[C@H](C)[C@@H](O)[C@H](N)[C@@H]2O)C[C@@H]2O[C@](O)(C[C@@H](O)C[C@@H](O)CC[C@H](O)[C@@H](O)C[C@@H](O)CC(=O)O[C@H]1C)C[C@H](O)[C@H]2C(=O)O ; strain or isolate: 17 isolates ; value: 0.923 µg/mL
C[C@@H](c1ncncc1F)[C@](O)(Cn1cncn1)c1ccc(F)cc1F ; strain or isolate: 62 isolates ; value: 0.334 µg/mL
CCC(C)n1ncn(-c2ccc(N3CCN(c4ccc(OC[C@H]5CO[C@](Cn6cncn6)(c6ccc(Cl)cc6Cl)O5)cc4)CC3)cc2)c1=O ; strain or isolate: 6 strains ; value: 0.0312 µg/mL
CCC(C)CC(C)CCCCCCCCC(=O)N[C@H]1C[C@@H](O)[C@H](NCCN)NC(=O)[C@@H]2[C@@H](O)CCN2C(=O)[C@H]([C@H](O)CCN)NC(=O)[C@H]([C@H](O)[C@@H](O)c2ccc(O)cc2)NC(=O)[C@@H]2C[C@@H](O)CN2C(=O)[C@H]([C@@H](C)O)NC1=O ; strain or isolate: 3 isolates ; value: 219 µg/mL
Cc1ccc(CNC(=O)c2ccccc2O)cc1 ; strain or isolate: 231 ; value: 487.5 µM
COc1cc(O)c2c(c1)C(=O)c1c(cc3c(c1O)-c1c(cc(C)c(C(=O)NC(CO)C(=O)O)c1O)[C@H](OC1OC(C)C(O)C(OC4OCC(O)C(O)C4O)C1O)C3O)C2=O ; strain or isolate: 35 isolates ; value: 8 µg/mL
COc1ccc(CNC(=O)c2ccccc2O)cc1 ; strain or isolate: 231 ; value: 500 µM
C[C@H]1[C@H](O)[C@@H](C)/C=C/C=C/C=C/C=C/C=C/C=C/C=C/[C@H](O[C@@H]2O[C@H](C)[C@@H](O)[C@H](N)[C@@H]2O)C[C@@H]2O[C@](O)(C[C@@H](O)C[C@@H](O)CC[C@H](O)[C@@H](O)C[C@@H](O)CC(=O)O[C@H]1C)C[C@H](O)[C@H]2C(=O)O ; strain or isolate: 17 strains ; value: 1.7 µg/mL

Repeating the first 2 entries:

smiles	strain or isolate	value
CCC(C)n1ncn(-c2ccc(N3CCN(c4ccc(OC[C@H]5CO[C@](Cn6cncn6)(c6ccc(Cl)cc6Cl)O5)cc4)CC3)cc2)c1=O	35 isolates	0.31 µg/mL
Nc1[nH]c(=O)ncc1F	17 isolates	18.8 µg/mL